The exact form of at least one protein or probe is not confirmed. The comparison behind a weaker result is the experiment's own reference, which may not be listed here.
Tested on: Neisseria HU
Assay: EMSA
Conditions: EMSA: 20 mM Tris pH 7.4, 100 mM NaCl, 25 C, 15 min (30 min HU/competitor pre-incubation), 4% agarose gel, recombinant protein, protein details: C-terminal His6, label: none (SYBR Green I stain)

**Q.** Does “CTCGCGAGCTCGCGAGCTCGCGAGCTCGCGAGCTCGCGAGCTCGTCGCGAG (double strand) [HU EMSA DNA substrate (stated 48 bp)]” bind (8 uM HU dimer, 0.5 uM DNA, no competitor, SYBR Green …)?
**A.** binds

**Q.** Does “CTCGCGAGCTCGCGAGCTCGCGAGCTCGCGAGCTCGCGAGCTCGTCGCGAG (double strand) [HU EMSA DNA substrate (stated 48 bp)]” bind (HU pre-incubated with DMP19 (8 or 16 uM), shift reduced at 1:1 DMP19 monomer:HU dimer, SYBR Green I)?
**A.** binds more weakly

**Q.** Does “CTCGCGAGCTCGCGAGCTCGCGAGCTCGCGAGCTCGCGAGCTCGTCGCGAG (double strand) [HU EMSA DNA substrate (stated 48 bp)]” bind (with BSA as control competitor protein, no change in HU-bound band, SYBR Green I)?
**A.** binds

**Q.** Does “CTCGCGAGCTCGCGAGCTCGCGAGCTCGCGAGCTCGCGAGCTCGTCGCGAG (double strand) [HU EMSA DNA substrate (stated 48 bp)]” bind (with ICP11 (DNA mimic) as control competitor protein, no change in HU-bound band, SYBR Green I)?
**A.** binds
